Laboratory results taken from PMC8227227 (Viruses, 2021).

Biological target: T1, HIV-1 PR (Human immunodeficiency virus type 1 group M subtype B, UniProt P04585)
T1 construct: assayed as substrates of the HIV-1 protease (PR)
Experiment: Enzyme assay with synthetic oligopeptide substrates (RP-HPLC)
Format: biochemical, human immunodeficiency virus type 1 (HIV-1)
Details: Table 3; kcat/Km (from Km and kcat) of mutant compared with wild-type

Row | Sequence | kcat/Km Fold-Change
1 | KIVKICFGCGKR [peptide 17, revertant NC-1 cleavage site peptide […]] | 8.75
2 | RKIVICFGCGKR [peptide 16, revertant NC-1 cleavage site peptide […]] | 24.25
